One assay concerns the target Cn Sgl1 (Cryptococcus neoformans, UniProt J9W473). As to the kind of experiment: Sgl1 enzyme inhibition with ergosterol 3β-D-glucoside in Triton X-100 mixed micelles, HPLC. The note with it: ergosterol 3β-D-glucoside substrate; compared with Hit 9. The protocol:
A 50 μL volume of Cn Sgl1 wild type and 50 μL of mixed micelles of lipid and Triton X-100 in 50 mM Bis-Tris buffer with 150 mM NaCl, 5 mM βME, and 5 mM DTT were mixed and incubated at 37 °C for 20 min (erg-glc, Avanti Polar Lipids). The amount of protein was 5 ng. After the incubation period, each reaction was quenched with a 2:1 chloroform:methanol solution and the organic phase was collected and dried. Then, the lipid content was resuspended in 50 μL methanol and applied to HPLC (Agilent Technologies). Total erg-glc and ergosterol was detected using absorbance at 282 nm on a C-8 column with a flow rate of 0.5 ml/min in methanol/water 90:10 ratio buffered with 1 mM ammonium formate and 0.2% formic acid. The total area of product was normalized by the total area of its respective substrate.

Protein sequences, listed by entry. Tags and fused reporters are not part of them. Residues count along the entry.
UniProt J9W473, 1-851: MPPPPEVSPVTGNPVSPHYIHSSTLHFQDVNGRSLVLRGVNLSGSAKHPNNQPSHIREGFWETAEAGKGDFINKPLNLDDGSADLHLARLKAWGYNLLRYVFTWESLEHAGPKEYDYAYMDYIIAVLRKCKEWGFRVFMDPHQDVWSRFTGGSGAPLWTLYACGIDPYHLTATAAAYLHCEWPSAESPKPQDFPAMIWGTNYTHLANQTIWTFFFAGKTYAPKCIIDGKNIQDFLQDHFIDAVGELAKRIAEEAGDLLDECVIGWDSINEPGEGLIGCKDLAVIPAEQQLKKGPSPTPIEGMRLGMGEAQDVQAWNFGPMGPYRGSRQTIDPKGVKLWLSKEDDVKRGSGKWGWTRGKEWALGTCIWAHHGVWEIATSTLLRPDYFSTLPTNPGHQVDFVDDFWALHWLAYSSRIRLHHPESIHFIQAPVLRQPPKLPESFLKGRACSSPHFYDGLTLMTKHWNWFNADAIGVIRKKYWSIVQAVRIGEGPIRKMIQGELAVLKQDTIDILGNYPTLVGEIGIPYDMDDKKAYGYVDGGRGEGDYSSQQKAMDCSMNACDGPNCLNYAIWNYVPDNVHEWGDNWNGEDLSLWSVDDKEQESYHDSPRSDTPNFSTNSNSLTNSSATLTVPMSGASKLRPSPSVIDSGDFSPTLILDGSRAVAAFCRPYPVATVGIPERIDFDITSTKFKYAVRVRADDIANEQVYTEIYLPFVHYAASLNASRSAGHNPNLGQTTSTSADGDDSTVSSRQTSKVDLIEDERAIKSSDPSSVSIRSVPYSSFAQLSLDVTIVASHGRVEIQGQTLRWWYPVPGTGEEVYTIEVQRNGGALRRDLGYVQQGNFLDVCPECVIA

The test system of the next assay is C. neoformans H99. As to the kind of experiment: Sterylglucoside (ergosterol 3β-D-glucoside) accumulation in C. neoformans cells. The note with it: compared with other hits. The protocol: C. neoformans H99 was cultivated in yeast nitrogen base (YNB) broth for 24 h at 37 °C with shaking. A pellet with 5×10^8 cells was treated during 24 h with all the hits selected, according to the toxicity criteria, in various concentrations. […] After that, the resultant pellets were re-counted and used for lipid extraction. Thenceforth the total lipid was extracted and dried samples were resuspended in chloroform/methanol 2:1 ratio for LC-MS analysis. A standard erg-glc from Avanti Polar Lipids was used as a control for the calibration curve. Data were normalized to the total inorganic phosphate content in the sample.

Regarding `CN1C[C@H](NC(=O)C(c2ccc3oc4ccccc4c3c2)c2ccc3oc4ccccc4c3c2)C[C@H]1CO`, the “Sgl1 enzyme inhibitory activity” value at Cn Sgl1 is on record as “slightly lower enzyme inhibitory activity than Hit 9”. The “SG accumulation in Cn WT cells” value in the assay with C. neoformans H99 was “significantly higher accumulation of ergosterol 3β-D-glucoside than Hit 9”.

For the origin of these results see patent US20260384417A1, “STERYLGLUCOSIDASE INHIBITING COMPOSITIONS AND METHOD OF USING” (published 2026).
